From PMC6464118 (European journal of medicinal chemistry, 2019)

System: HIV-1 NL4-3 Nanoluc-sec virus
Format: cell-based
Conditions: HIV-1 NL4-3 replication in MT4 cells

Structure (SMILES): CC(=O)O[C@H]1[C@@H](OC(C)=O)[C@@]2(C)[C@@H]3CC[C@H]4C(C)(C)[C@@H](OC(C)=O)CC[C@@]45C[C@@]35CC[C@@]23CO[C@@]2(C(C)(C)O)CC[C@](C)(O2)[C@@H]13 [Compound 13a, (20S, 24S)-15β, 16β-Diacetoxy-18,24;20,24-diepoxy-9,19-cyclolanostane-25-hydroxy-3β-yl acetate]
- anti-HIV activity in words: equipotent
